A mixed list of measured activities; the numbers were collected in NIAID ChemDB.

Shared fields: growth or infection tests; organism: HIV-1

ECn: concentration that inhibits the pathogen or its effect by n%.

compound,strain or isolate,cells,conditions,read-out,read by,mutations,result
C=CCOc1cccc(Cc2nc(SCC(C)C)nc(OCC(C)C)c2CC)c1,IIIB,MT-4,-,EC50,cytopathic effect / MTT,-,>100 µM
Cc1ccc(C)n1-c1ccc(C(=O)O)c(O)c1,IIIB X4 CLADE B,MT-2,-,EC50,p24,-,1.04 µM
Cc1cn([C@@H]2OC3CN[C@@]4(OCC(C)C)CS(=O)(=O)O[C@@]34[C@H]2O[Si](C)(C)C(C)(C)C)c(=O)[nH]c1=O,IIIB,MT-4,-,EC50,-,-,5.2 µM
COc1ccc(-c2c(C)nc3c(N4CC[C@@H](NC(=O)NC(C)C)C4)cc(C)nn23)cc1OC,-,H9,-,EC50,p24,-,<1 µM
Cc1occc1C(=S)Nc1ccc(Cl)c(C(=O)OC(C)C)c1,NL4-3,CEM + CEM-SS,-,EC50,cytopathic effect / XTT,RT-Y181C,1.2 µM
O=C1Nc2ccc(Cl)cc2C(C#Cc2ccsc2)(C(F)(F)F)O1,-,-,-,EC50,-,RT-K103N,<0.3219 µM
Cc1cn([C@@H]2O[C@@H]3CN[C@H]4CS(=O)(=O)O[C@]43[C@H]2O[Si](C)(C)C(C)(C)C)c(=O)[nH]c1=O,IIIB,MT-4,-,EC50,-,-,30.4 µM
Cc1cc(N2CCS(=O)CC2)ccc1NC(=O)COc1ccc(Cl)cc1C(=O)c1nccs1,IIIB,MT-4,-,EC50,cytopathic effect / propidium iodide,-,0.011–0.1 µM
CCOCn1c(Cc2cccc(OCC=NO)c2)c(CC)c(=O)[nH]c1=O,IIIB,MT-4,-,EC50,cytopathic effect / MTT,-,0.3 µM
Cc1cc(C)cc(C(=O)c2cc(Cl)ccc2OCC(=O)Nc2ccc(S(N)(=O)=O)cc2C)c1,HXB2,HeLa + HELA CD4+,-,EC50,β-galactosidase,RT-V106I,<0.01 µM
CNc1nc2ccc(S(=O)(=O)N(CC(C)C)C[C@@H](O)[C@H](Cc3ccccc3)NC(=O)COc3c(C)cc([N+](=O)[O-])cc3C)cc2o1,LAI WT,MT-4,-,EC50,cytopathic effect / MTT,-,0.0035 µM
Cc1ccc(-c2c([C@H](OC(C)(C)C)C(=O)O)c(C)nc3ccccc23)cc1C,-,PBMC,-,EC50,-,-,0.153 µM
CC(=O)N(C)C1COCCn2c1nc(C(=O)NCc1ccc(F)cc1)c(O)c2=O,-,MT-4,-,EC95,p24,-,<1 µM
Cc1cn([C@@H]2O[C@@H]3CN[C@@]4(C(N)=O)CS(=O)(=O)O[C@@]34[C@H]2O[Si](C)(C)C(C)(C)C)c(=O)[nH]c1=O,IIIB,CEM,-,EC50,-,-,>125 µM
CCC1=C(C(=O)OCC2CCCCC2)[C@H](c2ccc(OC(=O)c3ccccc3)cc2)NC(=O)N1,-,CEM,-,EC50,p24 / ELISA,-,≤1 µM
C=CCOc1cccc(Cc2c(CC)c(=O)[nH]c(=O)n2COCC)c1,RT-K103N Y181C Mutant NNRTI-resistant,MT-4,-,EC50,cytopathic effect / MTT,-,>65 µM
C=CCO/N=C/c1cc(NC(=S)c2ccoc2C)ccc1Cl,NL4-3,CEM + CEM-SS,-,EC50,cytopathic effect / XTT,RT-Y181C,0.4 µM
Cc1cc(OCCCN2CCOCC2)ccc1NC(=O)COc1ccc(Cl)cc1C(=O)c1cccs1,HXB2,HeLa + HELA CD4+,-,EC50,β-galactosidase,RT-K103N,0.011–0.1 µM
Cc1ccc(-c2cc(-c3ccccc3)n(-c3ccc(C(C)C)cc3)n2)c(=O)[nH]1,UG070,TZM-bl,-,EC50,luminescence,-,18.21 µM
Cc1cc(OCCCS(N)(=O)=O)ccc1NC(=O)COc1ccc(Cl)cc1C(=O)c1cc(F)cc(C(F)(F)F)c1,HXB2,HeLa + HELA CD4+,-,EC50,β-galactosidase,RT-E138K,<0.01 µM
CCOCn1c(Cc2cccc(CCC3CO3)c2)c(CC)c(=O)[nH]c1=O,RT-Y181C Mutant NNRTI-resistant,MT-4,-,EC50,cytopathic effect / MTT,-,80 µM
O=C1Nc2ccc(F)c(F)c2C(C#Cc2ccco2)(C(F)(F)F)O1,-,-,-,EC50,-,-,<0.00379 µM
Cc1cc(C#N)cc(C(=O)c2cc(Cl)ccc2OCC(=O)Nc2ccc(S(N)(=O)=O)cc2C)c1,HXB2,HeLa + HELA CD4+,-,EC50,β-galactosidase,RT-V106I Y181C,<0.01 µM
COc1cc(-c2ccc(N=Nc3ccc4c(S(=O)(=O)O)cc(S(=O)(=O)O)c(N)c4c3O)c(OC)c2)ccc1N=Nc1ccc2c(S(=O)(=O)O)cc(S(=O)(=O)O)c(N)c2c1O,ED,CEM + CEM-SS,-,EC50,RT activity,-,0.2 µM
CN1CCn2c(nc(C(=O)NCc3ccc(F)cc3)c(O)c2=O)C(N(C)S(C)(=O)=O)C1,-,MT-4,-,EC95,p24,-,<1 µM
Cc1ncnc(C)c1OCC(=O)N[C@@H](Cc1ccccc1)[C@H](O)CN(CC(C)C)S(=O)(=O)c1ccc2nc(N)oc2c1,LAI WT,MT-4,-,EC50,cytopathic effect / MTT,-,0.0589 µM
CCOCn1c(Cc2cccc(OCC=O)c2)c(CC)c(=O)[nH]c1=O,RT-Y181C Mutant NNRTI-resistant,MT-4,-,EC50,cytopathic effect / MTT,-,15 µM
Cc1ccc(-c2cc(-c3ccccc3)n(-c3ccccc3F)n2)c(=O)[nH]1,UG070,TZM-bl,-,EC50,luminescence,-,108 µM
O=C1Nc2ccc(Cl)cc2C(C#Cc2ccncc2)(C(F)(F)F)O1,-,-,-,EC50,-,RT-K103N,<0.1446 µM
C=CCOc1cccc(Cc2[nH]c(=O)[nH]c(=O)c2CC)c1,RT-Y181C Mutant NNRTI-resistant,MT-4,-,EC50,cytopathic effect / MTT,-,>20 µM
Cc1cn([C@@H]2O[C@@H]3CN[C@@]4(C#N)CS(=O)(=O)O[C@@]34[C@H]2O)c(=O)[nH]c1=O,IIIB,MT-4,-,EC50,-,-,>250 µM
CC=CCOc1cc(NC(=S)c2ccoc2C)ccc1OC,NL4-3,CEM + CEM-SS,-,EC50,cytopathic effect / XTT,RT-V106A,0.6 µM
Cc1cn([C@@H]2O[C@@H]3CN[C@@]4(OCc5ccccc5)CS(=O)(=O)O[C@@]34[C@H]2O)c(=O)[nH]c1=O,IIIB,MT-4,-,EC50,-,-,>250 µM
Cc1occc1C(=S)Nc1ccc(Cl)c(/C=N/OC(C)(C)C)c1,NL4-3,CEM + CEM-SS,-,EC50,cytopathic effect / XTT,RT-K103N,4.8 µM
CCc1c(Cc2cc(C)cc(C)c2)n(COCCOc2ccccc2)c(=O)[nH]c1=O,IIIB,MT-4,-,EC50,MTT,Efavirenz-resistant (K103R + V179D + P225H),11 µM
CC(C)CCOC1(C(F)(F)F)OC(=O)Nc2ccc(Cl)cc21,-,-,-,EC50,-,-,<0.01007 µM
Cc1cncc(C)c1OCCOC(=O)N[C@@H](Cc1ccccc1)[C@H](O)CN(CC(C)C)S(=O)(=O)c1ccc2nc(N)oc2c1,LAI WT,MT-4,-,EC50,cytopathic effect / MTT,-,0.5248 µM
C=CCCc1cccc(Cc2[nH]c(=S)[nH]c(=O)c2CC)c1,IIIB,MT-4,-,EC50,cytopathic effect / MTT,-,>80 µM
C=C1CN(S(=O)(=O)c2ccc(C)cc2)CCCN(CC2CCCCC2)CCCN(S(=O)(=O)c2ccc(C)cc2)C1,BaL,Monocytes/macrophages,-,EC50,p24,-,0.29 µM
CCC1=C(C(=O)OCC2CCCCC2)[C@H](c2cccc(OC(=O)[C@H](C)[NH3+])c2)NC(=O)N1,-,CEM,-,EC50,p24 / ELISA,-,≤1 µM
CCCCCO[C@]12CS(=O)(=O)O[C@@]13[C@@H](CN2)O[C@@H](n1cc(C)c(=O)[nH]c1=O)[C@@H]3O,IIIB,MT-4,-,EC50,-,-,143 µM
CC(C)C(OC(=O)c1cc(NC(=S)c2cccn2C)ccc1Cl)C(C)C,IIIB,CEM + CEM-SS,-,EC50,cytopathic effect / XTT,-,0.06 µM
CCC(=O)C1=C(CCC2CCCCC2)NC(=O)N[C@H]1c1ccc(O)c(Cl)c1,-,CEM,-,EC50,p24 / ELISA,-,>5 µM
Cc1cn([C@H]2C[C@H](N=[N+]=[N-])[C@@H](CO)O2)c(=O)[nH]c1=O,UG070,TZM-bl,-,EC50,luminescence,-,0.027 µM
CCc1c(Cc2ccccc2)n(COCCOc2ccccc2)c(=O)[nH]c1=O,A17,MT-4,-,EC50,MTT,K103N + Y181C,>32 µM
O=C(NCc1ccc(F)cc1)c1nc2n(c(=O)c1O)CCN(Cc1cocn1)C21CC1,-,MT-4,-,EC95,p24,-,<1 µM
Cc1cn([C@@H]2O[C@@H]3CN[C@@]4(OCCO)CS(=O)(=O)O[C@@]34[C@H]2O)c(=O)[nH]c1=O,IIIB,CEM,-,EC50,-,-,>250 µM
CC1=C(C(=O)Nc2ccc(Cl)c(C(=O)OC(C)C)c2)SCCO1,IIIB,CEM + CEM-SS,-,EC50,cytopathic effect / XTT,-,0.8 µM
CC(=O)N1C2CCC(C2)N2C(=O)c3c(O)c(=O)c(C(=O)NCc4ccc(F)cc4F)cn3CC12,NL4-3,MT-4,100% human serum,EC50,GFP,-,0.037 µM
CS(=O)(=O)Nc1ccc(NC(=O)COc2ccc(Cl)cc2C(=O)c2ccccc2)cc1,HXB2,HeLa + HELA CD4+,-,EC50,β-galactosidase,RT-Y181C,0.011–0.1 µM
Cc1ccc(-c2cc(-c3ccccc3)n(-c3ccc(C(F)(F)F)cc3)n2)c(=O)[nH]1,UG070,TZM-bl,-,EC50,luminescence,-,89.16 µM
COc1ccc(-c2c(C)nc3c(N4CC[C@@H](NS(=O)(=O)c5ccc(C(C)=O)cc5)C4)cc(C)nn23)cc1OC,-,H9,-,EC50,p24,-,0.2 µM
C=CCCOC1(C(F)(F)F)OC(=O)Nc2ccc(Cl)cc21,-,-,-,EC50,-,-,<0.01368 µM
CC(=O)COc1cc(NC(=S)OC(C)C)ccc1Cl,NL4-3,CEM + CEM-SS,-,EC50,cytopathic effect / XTT,-,0.05 µM
CCC1=C(C(=O)c2cc(C)cc(C)c2)C(c2cccc(O)c2)NC(=O)N1,-,CEM,-,EC50,p24 / ELISA,-,>5 µM
Cc1occc1C(=S)Nc1ccc(Cl)c(C(=O)OCC2CC2)c1,RF,CEM + CEM-SS,-,EC50,cytopathic effect / XTT,-,0.022 µM
CCSc1cc(N2CC[C@@H](NC(C)=O)C2)c2nc(C)c(-c3ccc(OC)c(OC)c3)n2n1,-,H9,-,EC50,p24,-,1 µM
CC(C)CS[C@H]1C[C@@H](n2cnc3c(N)ncnc32)[C@H](O)[C@@H]1O,IIIB,CEM,-,EC50,cytopathic effect / syncytia / trypan blue,-,≥50 µg/mL
COc1cc(Cc2[nH]c(=O)[nH]c(=O)c2C(C)C)cc(OC)c1,N119,MT-4,-,EC50,MTT,Y181C,>100 µM
O=C(NCc1ccc(F)cc1)c1nc2n(c(=O)c1O)CCOCC2,-,MT-4,-,EC95,p24,-,<50 µM
CC(C)CN(C[C@@H](O)[C@H](Cc1ccccc1)NC(=O)O[C@H]1CO[C@H]2OCC[C@H]21)S(=O)(=O)c1ccc(C(=O)O)cc1,LAI,MT-4,-,EC50,p24 / luminescence,-,1000 µM
CC1(C)c2nc(C(=O)NCc3ccc(F)cc3)c(O)c(=O)n2CCN1CC(=O)N1CCCC1,-,MT-4,-,EC50,p24,-,<1 µM
Cc1cc(C)cc(-n2nc(-c3ccc(C)[nH]c3=O)cc2-c2ccccc2)c1,VB59,TZM-bl,-,EC50,luminescence,-,>563 µM
CCC1=C(C(=O)OCC2CCCCC2)C(c2cc(F)c(O)c(OC)c2)NC(=O)N1,-,CEM,-,EC50,p24 / ELISA,-,≤1 µM
CC(=O)N1CCn2c(nc(C(=O)NCc3ccc(F)cc3)c(O)c2=O)C(N(C)C(=O)C(=O)N(C)C)C1,-,MT-4,-,EC50,p24,-,<1 µM
Cc1cccc(C)c1OCC(=O)N[C@@H](Cc1ccccc1)[C@H](O)CN(CC(C)C)S(=O)(=O)c1ccc2nc(N)oc2c1,LAI WT,MT-4,-,EC50,cytopathic effect / MTT,-,0.0158 µM
COc1ccc(-c2c(C)nc3c(N4CC[C@@H](O)C4)cc(C)nn23)cc1OC,-,H9,-,EC50,p24,-,0.6 µM
Cc1ccc(-c2cc(-c3ccccc3)n(-c3ccc(Cl)cc3)n2)c(=O)[nH]1,VB59,TZM-bl,-,EC50,luminescence,-,137 µM
COc1cc(Cc2c(C(C)C)c(=O)[nH]c(=O)n2COCCOc2ccccc2)cc(OC)c1,N119,MT-4,-,EC50,MTT,Y181C,>33 µM
C=CCOc1cccc(Cc2nc(SC(C)C)nc(OC(C)C)c2CC)c1,RT-K103N Y181C Mutant NNRTI-resistant,MT-4,-,EC50,cytopathic effect / MTT,-,>100 µM
CC(C)c1c(Cc2ccccc2)n(COCCOc2ccccc2)c(=O)[nH]c1=O,IIIB,MT-4,-,EC50,MTT,Efavirenz-resistant (K103R + V179D + P225H),18.5 µM
CC1=C(C(=O)OCC2CCCCC2)C(c2ccc[n+]([O-])c2)NC(=O)N1,-,CEM,-,EC50,p24 / ELISA,-,>5 µM
COc1ccc(-n2cnc3c(N4CC[C@@H](NC(C)=O)C4)nc(C)nc32)cc1OC,-,H9,-,EC50,p24,-,1 µM
Cc1cc(S(N)(=O)=O)ccc1NC(=O)COc1ccc(Cl)cc1C(=O)c1cc(F)cc(F)c1,IIIB,MT-4,-,EC50,cytopathic effect / propidium iodide,-,<0.01 µM
CC(=O)N[C@@H]1CCN(c2cc(C)nn3c(-c4cccc(N5CCOCC5)c4)c(C)nc23)C1,-,H9,-,EC50,p24,-,0.8 µM
COc1cc(Cc2[nH]c(=S)[nH]c(=O)c2C(C)C)cc(OC)c1,IIIB,MT-4,-,EC50,MTT,-,>100 µM
CCC1=C(C(=O)OCC2CCCCC2)C(c2ccc(OC(=O)c3ccncc3)c(Cl)c2)NC(=O)N1,-,CEM,-,EC50,p24 / ELISA,-,≤1 µM
CCOCn1c(Cc2ccccc2)c(C(C)C)c(=O)[nH]c1=O,A17,MT-4,-,EC50,MTT,K103N + Y181C,56 µM
Cc1cc(S(N)(=O)=O)ccc1NC(=O)COc1ccc(Cl)cc1C(=O)c1cccc(C#N)n1,HXB2,HeLa + HELA CD4+,-,EC50,β-galactosidase,RT-G190A,<0.01 µM

a–b is a range or a potency band. Lines come from different laboratories, so protocols vary. An empty or dashed field is not shown.